Measured values from US20080096187A1.

Assays:
Test in all cases: cell-based or functional assay
[1] = biological target: HIV-2 7312A/Q422L envelope glycoprotein (HIV-2 isolate 7312A)
[2] = biological target: HIV-2 ST envelope glycoprotein (HIV-2 ST) (UniProt P20872)
[3] = biological target: HIV-2 7312A/V434M envelope glycoprotein (HIV-2 isolate 7312A)
[4] = biological target: HIV-2 7312A/H419R envelope glycoprotein (HIV-2 isolate 7312A)
[5] = biological target: HIV-2 UC-1 envelope glycoprotein (HIV-2 UC1) (UniProt Q76638)
[6] = biological target: HIV-2 7312A envelope glycoprotein (HIV-2 isolate 7312A)

For “soluble CD4 (from UniProt P01730 26-390) (receptor)”, the IC50 of sCD4 specific for the virus (neutralization) [1] was 0.006 µM, the IC50 of sCD4 specific for the virus (neutralization) [2] was 0.025 µM and the IC50 of sCD4 specific for the virus (neutralization) [3] was 0.015 µM. The IC50 of sCD4 specific for the virus (neutralization) [4] was 0.028 µM, the IC50 of sCD4 specific for the virus (neutralization) [5] was 0.003 µM and the IC50 of sCD4 specific for the virus (neutralization) [6] was 0.009 µM.
